Results of unrelated studies side by side (data: NIAID ChemDB).

All rows: whole-cell or culture tests; organism: Mycobacterium kansasii; endpoint: MIC

Blank or dashed fields: not listed here. Rows are shuffled and stem from different studies.

smiles,strain or isolate,read by,conditions,result
N/C(=N\N=C\c1ccccc1)SCc1ccc(Br)cc1,6509/96,broth dilution,14 d,32 µM
O=C(Oc1ccc(Br)cc1C(=O)Nc1ccc(C(F)(F)F)cc1)c1cnccn1,235/80,-,14 d,2 µM
O=C(OCc1ccccc1)N1CCC[C@H]1c1cnc(-c2ccc([N+](=O)[O-])cc2)[nH]1,My 235/80,-,14 d,125 µM
Cc1ccc(CS/C(N)=N/N=C/c2ccccc2)cc1,6509/96,broth dilution,21 d,62.5 µM
C[C@@H](NC(=O)OCc1ccccc1)c1cnc(-c2ccc([N+](=O)[O-])cc2)[nH]1,My 6509/96,-,7 d,>125 µM
O=C(Oc1ccc(Cl)cc1C(=O)Nc1ccc(Br)cc1)c1ccccc1,6509/96,broth dilution,21 d,4 µM
Fc1ccc2oc(=S)n(-c3ccc(C(F)(F)F)cc3)c(=S)c2c1,My 235/80,-,21 d,8 µM
Cc1ccn2c(C(=O)NCc3ccc4c(c3)CCO4)c(C)nc2c1,Clinical isolate SHP,MTT,-,32 µg/mL
CC[C@@H](C)[C@H](NC(=O)OCc1ccccc1)c1cnc(-c2ccccc2)[nH]1,My 6509/96,-,14 d,32 µM
Cc1ccc2c(=S)n(-c3ccc(C(C)C)cc3)c(=S)oc2c1,6509/96,broth dilution,14 d,2 µM
Cc1ccc2nc(C)c(C(=O)NCc3ccc(C(F)(F)F)cc3)n2c1,Clinical isolate 379,MTT,-,<0.06 µg/mL
S=C=NCCCCCCN=C=S,-,visual reading,-,8 µg/mL
O=C(Nc1ccc(Cl)c(Cl)c1)c1cc(Cl)ccc1O,6509/96,broth dilution,7 d,8 µM
O=C(Oc1cc(Cl)ccc1C(=O)Nc1ccc(F)cc1)c1cnccn1,235/80,-,7 d,2 µM
C[C@H](NC(=O)OCc1ccccc1)c1cnc(-c2ccc([N+](=O)[O-])cc2)[nH]1,My 235/80,-,21 d,>125 µM
O=C(Nc1cccc(F)c1)c1ccc(Cl)cc1OS(=O)(=O)c1ccccc1,6509/96,-,7 d,16 µM
Oc1ccc(CCN=C=S)cc1,-,visual reading,-,32 µg/mL
N=C(N)N1N=C(/C=C/c2ccccc2)CC1c1ccccc1,-,resazurin,-,2.15 µM
O=C(Nc1ccc(Cl)cc1)c1cc(Cl)ccc1OS(=O)(=O)c1ccccc1,235/80,-,14 d,8 µM
O=C(Oc1ccc(Cl)cc1C(=O)Nc1ccc(Cl)c(Cl)c1)c1cnccn1,235/80,-,21 d,4 µM
Cc1ccc2oc(=O)n(-c3ccccc3)c(=S)c2c1,My 235/80,-,14 d,2 µM
CC(=O)Oc1ccccc1C(=O)Nc1cnccn1,-,resazurin,-,>100 µg/mL
O=C(Oc1ccc(Cl)cc1C(=O)Nc1cccc(Cl)c1)c1cnccn1,235/80,-,21 d,4 µM
O=c1oc2ccc(F)cc2c(=S)n1-c1cccc(F)c1,6509/96,-,14 d,16 µM
O=C(Oc1cc(Cl)ccc1C(=O)Nc1cccc(Br)c1)c1ccccc1,235/80,broth dilution,14 d,4 µM
O=C(Nc1ccc(Br)cc1)c1cc(Cl)ccc1OS(=O)(=O)c1ccccc1,6509/96,-,7 d,8 µM
COc1ccc2oc(=O)n(-c3ccc(Cl)cc3)c(=S)c2c1,6509/96,-,14 d,16 µM
CCC(C)c1ccc(-n2c(=S)oc3cc(C)ccc3c2=S)cc1,6509/96,broth dilution,14 d,8 µM
O=C(Oc1cc(Cl)ccc1C(=O)Nc1ccc(Cl)cc1)c1ccccc1,235/80,broth dilution,14 d,2 µM
N/C(=N\N=C\c1cc(Cl)ccc1O)SCc1cccc(Cl)c1,6509/96,broth dilution,14 d,32 µM
CC(C)[C@H](NC(=O)OCc1ccccc1)c1cnc(-c2ccc([N+](=O)[O-])cc2)[nH]1,My 235/80,-,21 d,62.5 µM
N/C(=N\N=C\c1ccccc1O)SCc1cccc(Cl)c1,ATCC 12478,broth dilution,21 d,62.5 µM
N=C(N)N1N=C(/C=C/c2ccc(Cl)cc2)CC1c1ccc(Cl)cc1,-,resazurin,-,6.96 µM
O=C(Oc1cc(Cl)ccc1C(=O)Nc1ccc(C(F)(F)F)cc1)c1ccccc1,235/80,broth dilution,14 d,2 µM
O=C(Nc1cccc(C(F)(F)F)c1)c1cc(Cl)ccc1OS(=O)(=O)c1ccccc1,235/80,-,7 d,8 µM
N/C(=N\N=C\c1cc(Cl)ccc1O)SCc1ccc(F)cc1,6509/96,broth dilution,21 d,32 µM
O=C(Oc1ccc(Cl)cc1C(=O)Nc1cccc(Cl)c1)c1ccccc1,6509/96,broth dilution,14 d,4 µM
O=C(Oc1ccc(Cl)cc1C(=O)Nc1cccc(C(F)(F)F)c1)c1cnccn1,6509/96,-,21 d,8 µM
O=C(Oc1cc(Cl)ccc1C(=O)Nc1cccc(Cl)c1)c1ccccc1,235/80,broth dilution,7 d,2 µM
N/C(=N\N=C\c1ccccc1O)SCc1ccc(Br)cc1,ATCC 12478,broth dilution,21 d,32 µM
Nc1ccc(C(=O)O)c(O)c1,6509/96,-,14 d,125 µM
O=C(Nc1cccc(Cl)c1)c1cc(Cl)ccc1OS(=O)(=O)c1ccccc1,6509/96,-,7 d,8 µM
O=c1oc2ccc(Cl)cc2c(=S)n1-c1cccc(F)c1,6509/96,-,14 d,8 µM
CC(C)C[C@H](NC(=O)OCc1ccccc1)c1cnc(-c2ccccc2)[nH]1,My 6509/96,-,7 d,>125 µM